In ChEMBL document CHEMBL1150561, “Nodularin-Har: a new nodularin from Nodularia” (2001) one finds LD50 data, which are given here for one compound.

The test system of the data set is Mus musculus. Kind of data set: Hepatotoxicity in ip dosed ddY mouse assessed as increase in liver weight and intra hepatic hemorrhages. As to conditions: in vivo, strain ddY.

As to `C/C=C1/C(=O)N[C@@H](C(=O)O)[C@H](C)C(=O)N[C@@H](CCCCNC(=N)N)C(=O)N[C@@H](/C=C/C(C)=C/[C@H](C)[C@H](Cc2ccccc2)OC)[C@H](C)C(=O)N[C@@H](C(=O)O)CCC(=O)N1C`, the LD50 was 0.07 mg/kg.
